Source: patent publication US20150071955

T1: TAT-276-292 peptide (TAT domain and GBV-C E2 aa 276-292)
T1 chain: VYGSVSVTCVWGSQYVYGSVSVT

T2: TAT-SCR peptide (TAT domain and the amino acids of E2 276-292 in a scrambled order)
T2 chain: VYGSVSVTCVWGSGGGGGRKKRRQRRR


Columns and labels:
[1] = molecular target: GBV-C E2 protein ([…]) with C-terminal his-tag, stably expressed in Jurkat (tet-off) cells
[2] = molecular target: T1, TAT-276-292 peptide (TAT domain and …)
[3] = molecular target: T2, TAT-SCR peptide (TAT domain and the …)

Protein | Lck activation (phosphorylation of Lck Y394) following TCR engagement with anti-CD3, immunoblot [1] | Lck mediated phosphorylation of peptide (Lck kinase enzyme system, RLU) [2] | Lck mediated phosphorylation of peptide (Lck kinase enzyme system, RLU) [3]
Lymphocyte specific protein tyrosine kinase (Lck), endogenous, in Jurkat cell lysate (protein) GCGCSSHPEDDWMENIDVCENCHYPIVPLDGKGTLLIRNGSEVRDPLVTYEGSNPPASPLQDNLVIALHSYEPSHDGDLGFEKGEQLRILEQSGEWWKAQSLTTGQEGFIPFNFVAKANSLEPEPWFFKNLSRKDAERQLLAPGNTHGSFLIRESESTAGSFSLSVRDFDQNQGEVVKHYKIRNLDNGGFYISPRITFPGLHELVRHYTNASDGLCTRLSRPCQTQKPQKPWWEDEWEVPRETLKLVERLGAGQFGEVWMGYYNGHTKVAVKSLKQGSMSPDAFLAEANLMKQLQHQRLVRLYAVVTQEPIYIITEYMENGSLVDFLKTPSGIKLTINKLLDMAAQIAEGMAFIEERNYIHRDLRAANILVSDTLSCKIADFGLARLIEDNEYTAREGAKFPIKWTAPEAINYGTFTIKSDVWSFGILLTEIVTHGRIPYPGMTNPEVIQNLERGYRMVRPDNCPEELYQLMRLCWKERPEDRPTFDYLRSVLEDFFTATEGQYQPQP | Lck activation, as measured by phosphorylation of Y394, was reduced in Jurkat cells expressing E2 protein compared to FS controls | – | –
Lck of the Lck kinase enzyme system (Promega) (protein) MGCGCSSHPEDDWMENIDVCENCHYPIVPLDGKGTLLIRNGSEVRDPLVTYEGSNPPASPLQDNLVIALHSYEPSHDGDLGFEKGEQLRILEQSGEWWKAQSLTTGQEGFIPFNFVAKANSLEPEPWFFKNLSRKDAERQLLAPGNTHGSFLIRESESTAGSFSLSVRDFDQNQGEVVKHYKIRNLDNGGFYISPRITFPGLHELVRHYTNASDGLCTRLSRPCQTQKPQKPWWEDEWEVPRETLKLVERLGAGQFGEVWMGYYNGHTKVAVKSLKQGSMSPDAFLAEANLMKQLQHQRLVRLYAVVTQEPIYIITEYMENGSLVDFLKTPSGIKLTINKLLDMAAQIAEGMAFIEERNYIHRDLRAANILVSDTLSCKIADFGLARLIEDNEYTAREGAKFPIKWTAPEAINYGTFTIKSDVWSFGILLTEIVTHGRIPYPGMTNPEVIQNLERGYRMVRPDNCPEELYQLMRLCWKERPEDRPTFDYLRSVLEDFFTATEGQYQPQP | – | A synthetic peptide containing this motif (TAT-276-292) also served as a Lck substrate in vitro compared to a control peptide (TAT-SCR) | Lck mediated phosphorylation of TAT-Y87 and TAT-276-292 peptide was detected in dose-dependent manner compared to TAT-Y87 peptide synthetically phosphorylated (TAT-Y87PO4) or the TAT-276-292 peptide synthesized in a scrambled order TAT-SCR
